Results on two molecules are retold here after PMC10897926 (Journal of Natural Products, 2024).

Usually EC50 stands for the concentration giving half of the maximal effect.

The subject of assay [1] is P. falciparum (strain W2) asexual blood stage parasites. Nature of the assay: P. falciparum asexual blood stage (ABS) assay, high content imaging. Type of assay: cell-based, Plasmodium falciparum. The following applies: 72 h; for P. falciparum ABS (W2) pEC50: -log of EC50 in [M], mean ± SD of independent experiments.
A further assay deals with P. vivax liver schizonts. Nature of the assay: P. vivax liver stage assay, radical cure mode: liver schizonts. Type of assay: cell-based, Plasmodium vivax. The following applies: for P. vivax schizont pEC50: -log of EC50 in [M], mean ± SD, radical cure mode.
A further assay has as its system P. vivax hypnozoites. Nature of the assay: P. vivax liver stage assay, radical cure mode: hypnozoites. The following applies: for P. vivax hypnozoite pEC50: -log of EC50 in [M], mean ± SD, radical cure mode. Type of assay: cell-based, Plasmodium vivax.

On to verrucarin A, for which, in assay [1], the “P. falciparum ABS (W2) pEC50” value turned out to be 9.35 ± 0.04. Further, the EC50 stood at 0.45 nM in assay [1] (read-out: P. falciparum ABS (W2) EC50, ring stage parasites, geometric mean of three independent experiments); 4.07 nM in the assay with P. vivax liver schizonts (read-out: P. vivax schizont EC50, liver schizonts in primary human hepatocytes, treated days 5-7 postinfection, read day 12, two independent experiments); 30.9 nM in the assay on P. vivax hypnozoites (read-out: P. vivax hypnozoite EC50, mature hypnozoites in primary human hepatocytes, treated days 5-7 postinfection, read day 12, two independent experiments). In the assay with P. vivax liver schizonts, the “P. vivax schizont pEC50” value stood at 8.39 ± 0.82. For the same molecule, the “P. vivax hypnozoite pEC50” value with P. vivax hypnozoites is recorded as 7.51 ± 0.11.
Regarding `CC1=C[C@H]2O[C@@H]3C[C@@H](O)[C@](C)([C@@]2(CO)CC1)[C@@]31CO1`, the “P. falciparum ABS (W2) pEC50” value in assay [1] is given as 5.36 ± 0.20. In the assay with P. vivax liver schizonts, the “P. vivax schizont pEC50” value was determined as 5.00 ± 0.00. Also, the “P. vivax hypnozoite pEC50” value in the assay on P. vivax hypnozoites was 5.48 ± 0.68.
